# Assay results taken from paper PMC5834442, “Identifying inhibitors of the Leishmania inositol phosphorylceramide synthase with antiprotozoal activity using a yeast-based assay and ultra-high throughput screening platform” (Scientific Reports, 2018).
# By UniProt entry, the sequences of proteins in these tests, tags left out. Where a name states a change or a piece, a line headed by the entry shows the natural chain unless it says otherwise.
# UniProt P36107: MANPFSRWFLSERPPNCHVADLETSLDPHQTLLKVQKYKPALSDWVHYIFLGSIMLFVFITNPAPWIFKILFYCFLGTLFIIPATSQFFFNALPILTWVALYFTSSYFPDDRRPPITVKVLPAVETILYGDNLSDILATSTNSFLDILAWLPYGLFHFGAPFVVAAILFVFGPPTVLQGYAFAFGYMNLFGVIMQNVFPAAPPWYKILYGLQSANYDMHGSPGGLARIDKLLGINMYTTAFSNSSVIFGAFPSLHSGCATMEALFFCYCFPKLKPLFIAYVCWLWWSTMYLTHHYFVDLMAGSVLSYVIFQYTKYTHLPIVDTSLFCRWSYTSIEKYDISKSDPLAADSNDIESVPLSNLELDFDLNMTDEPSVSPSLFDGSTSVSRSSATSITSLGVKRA
# UniProt E9AFX2: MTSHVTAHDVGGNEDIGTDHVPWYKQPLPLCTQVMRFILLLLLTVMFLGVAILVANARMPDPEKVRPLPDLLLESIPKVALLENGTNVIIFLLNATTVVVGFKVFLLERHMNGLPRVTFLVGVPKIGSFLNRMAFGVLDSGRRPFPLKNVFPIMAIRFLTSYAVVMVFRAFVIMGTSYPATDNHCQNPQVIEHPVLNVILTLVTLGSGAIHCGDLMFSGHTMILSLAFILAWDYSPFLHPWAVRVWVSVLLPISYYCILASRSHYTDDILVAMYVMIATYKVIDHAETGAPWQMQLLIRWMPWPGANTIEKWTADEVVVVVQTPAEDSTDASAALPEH
# Tests used:
# [1] = tested on: L. donovani (MHOM/SD/62/1S-CL2D, LdBOB) axenic amastigotes; experiment: Leishmania donovani axenic amastigote dose response assay (resazurin); type: cell-based; conditions: -logIC50 mol against L. donovani (LdBOB) axenic amastigotes
# [2] = target: AUR1p (Saccharomyces cerevisiae, UniProt P36107); conditions: -logIC50 mol against yeast α ade−.lys−.leu−.Δaur1−.pESC-LEU_AUR1
# [3] = tested on: THP-1 macrophages; experiment: Host cell toxicity in the intramacrophage assay; type: cell-based, human
# [4] = tested on: HepG2 cells; experiment: Mammalian cell cytotoxicity assay (CellTiter-Glo); type: cell-based, human; conditions: for PIC50 HepG2: -logIC50 mol against HepG2; for pSI v HepG2: selectivity: pIC50 axenic minus pIC50 HepG2
# [5] = target: L. major IPC synthase (LmjFIPCS) (Leishmania major, UniProt E9AFX2); conditions: -logIC50 mol against yeast α ade−.lys−.leu−.Δaur1−.pESC-LEU_LmjIPCS
# [6] = tested on: intra-macrophage Leishmania donovani amastigotes; experiment: Intramacrophage Leishmania donovani assay (high content imaging); type: cell-based; conditions: intramacrophage L. donovani
Compound,pIC50 Axenic [1],pIC50 AUR1 [2],pIC50 THP-1 ([3]; THP-1 host cells in intramacrophage assay),pSI v THP-1 ([3]; selectivity: pIC50 InMac minus pIC50 THP-1),PIC50 HepG2 [4],pSI v HepG2 [4],pIC50 LmjIPCS [5],pIC50 InMac [6]
CC1=C[C@H]2O[C@@H]3C[C@H]4OC(=O)C=CC=CC(C(C)O)OCCC(C)C(O)C(=O)OC[C@@]2(CC1)[C@]4(C)[C@]31CO1 (stereo partly shown),8.49,5.26,8.58,0.13,7.41,1.08,6.75,8.71
CC1=C[C@H]2O[C@@H]3C[C@H]4OC(=O)C=CCC=C5OCC[C@@]6(O[C@@H]6C(=O)OC[C@@]2(CC1)[C@]4(C)[C@@]31CO1)[C@@H]5O,8.33,4.92,,,7.64,0.69,7.27,
